Anti-infective test results gathered from many reports (values: NIAID ChemDB through PubChem).

Shared fields: tests in culture

An empty or dashed field is not shown. Rows are shuffled and stem from different studies. Percent inhibition refers to the dose given; in toxicity tests it is the harm to the cells. ECn: concentration that inhibits the pathogen or its effect by n%. MIC50, MIC90 and the like: level of inhibition, or share of isolates inhibited.

compound | agent | cell line | read by | dose | measure | value
CCSc1nsc(-c2ccccc2)c1C#N | Encephalomyocarditis virus | L929 | plaque count | - | EC50 | 20 µg/mL
CCn1cc(C(=O)O)c(=O)c2cnc(N3CCNCC3)nc21 | Encephalitozoon intestinalis | - | - | - | MIC50 | >100 µM
O=c1c2cccnc2[se]n1C1CCCCC1 | Encephalomyocarditis virus | - | - | - | MIC | 4 µg/mL
O=C1N[C@@H]2C(c3cc4c(c(O)c31)OCO4)[C@@H](O)[C@H](O)[C@@H](O)[C@H]2O | Encephalitozoon intestinalis | RK-13 | - | - | EC50 | 0.18 µM
CC(C)C[C@H](NC(=O)[C@@H](O)[C@H](N)Cc1ccccc1)C(=O)O | Encephalitozoon cuniculi | - | - | - | EC50 | 10 µg/mL
CC(C)(C)n1[se]c2ncccc2c1=O | Encephalomyocarditis virus | - | - | - | MIC | 4 µg/mL
COC(=O)c1c(SC)nsc1-c1ccccc1 | Encephalomyocarditis virus | L929 | plaque count | - | EC50 | 15 µg/mL
COC(=O)Nc1nc2ccccc2[nH]1 | Encephalitozoon intestinalis | E6 | - | - | EC50 | 0.007 µg/mL
O=c1c2ccccc2[se]n1-c1ccccc1 | Encephalomyocarditis virus | - | - | - | MIC | 10 µg/mL
O=C(O)c1cn(C2CC2)c2cc(N3CCNCC3)c(F)cc2c1=O | Encephalitozoon intestinalis | - | - | - | MIC50 | 84 µM
CO[C@H]1[C@@H](OC(=O)/C=C/C=C/C=C/C=C/C(=O)O)CC[C@@]2(CO2)[C@@H]1[C@@]1(C)O[C@@H]1CC=C(C)C | Encephalitozoon intestinalis | - | - | - | MIC | 0.000515 µg/mL
COC(=O)Nc1nc2ccc(S(=O)c3ccccc3)cc2[nH]1 | Encephalitozoon intestinalis | E6 | - | - | EC50 | 0.004 µg/mL
Cc1cc(-n2c(=O)[nH]c(=O)n(C)c2=O)ccc1Oc1ccc(SC(F)(F)F)cc1 | Encephalitozoon cuniculi | - | - | - | EC50 | >5 µg/mL
NS(=O)(=O)c1ccc(NC(=O)c2ccccc2[Se][Se]c2ccccc2C(=O)Nc2ccc(S(N)(=O)=O)cc2)cc1 | Encephalomyocarditis virus | - | - | - | MIC | 600 µg/mL
CCCOc1ccc2nc(NC(=O)OC)[nH]c2c1 | Encephalitozoon cuniculi | - | - | - | EC50 | 0.0015 µg/mL
Cc1ncc([N+](=O)[O-])n1CCO | Encephalitozoon cuniculi | MRC-5 fibroblasts | cytopathic effect | 50 µg/mL | inhibition | 89%
CCN(CC)CCCC(C)Nc1c2ccc(Cl)cc2nc2ccc(OC)cc12 | Encephalitozoon intestinalis | RK-13 | - | 0.01 µg/mL | inhibition | 0%
CCn1cc(C(=O)O)c(=O)c2cc(F)c(N3CCNCC3)cc21 | Encephalitozoon intestinalis | - | - | - | MIC50 | 1 µM
CCCN1[Se]c2ccccc2NC1=O | Encephalomyocarditis virus | - | - | - | MIC | 4 µg/mL
COC(=O)Nc1nc2ccc(C(=O)c3ccccc3)cc2[nH]1 | Encephalitozoon intestinalis | E6 HOST CELLS | - | - | EC50 | 0.2 µg/mL
N=C(N)c1ccc(OCCCOc2ccc(C(=N)N)cc2)cc1 | Encephalitozoon cuniculi | - | - | - | EC50 | 5 µg/mL
c1ccc2[nH]c(-c3cscn3)nc2c1 | Encephalitozoon intestinalis | E6 HOST CELLS | - | - | EC50 | >3 µg/mL
COc1cc2c(c(OC)c1OC)-c1ccc(OC)c(=O)cc1[C@@H](NC(C)=O)CC2 | Encephalitozoon intestinalis | RK-13 | - | 0.01 µg/mL | inhibition | 43.1%
N#Cc1c(SCCCBr)nsc1-c1ccccc1 | Encephalomyocarditis virus | L929 | plaque count | - | EC50 | 2.5 µg/mL
CCNCCCCNCCCCNCCCCNC/C=C/CNCCCCNCCCCNCCCCNCC | Encephalitozoon cuniculi | - | - | - | EC50 | 8.2 µM
CO[C@@H]1[C@H](OC(=O)NC(=O)CCl)CC[C@]2(CO2)[C@H]1[C@@]1(C)O[C@@H]1CC=C(C)C | Encephalitozoon intestinalis | - | - | - | MIC50 | 0.003 µg/mL
CCCSc1ccc2nc(NC(=O)OC)[nH]c2c1 | Encephalitozoon cuniculi | MRC-5 fibroblasts | cytopathic effect | 1 µg/mL | inhibition | 100%
Cn1[se]c2ncccc2c1=O | Encephalomyocarditis virus | - | - | - | MIC | 4 µg/mL
CCOC(=O)Nc1cc2[nH]c(=O)c(-c3ccccc3)nc2c(NC(c2ccccc2)c2ccccc2)n1 | Encephalitozoon intestinalis | RK-13 | - | 0.01 µg/mL | inhibition | 57.5%
NC(N)=NS(=O)(=O)c1ccc(N)cc1 | Encephalitozoon cuniculi | MRC-5 fibroblasts | cytopathic effect | 5 µg/mL | inhibition | 0%
NC(=O)c1c[se]c([C@@H]2O[C@H](CO)[C@@H](O)[C@H]2O)n1 | Encephalomyocarditis virus | HeLa | cytopathic effect | - | EC50 | 5 µg/mL
O=c1[nH]cc(F)c(=O)[nH]1 | Encephalitozoon cuniculi | MRC-5 fibroblasts | cytopathic effect | 2 µg/mL | inhibition | 58%
COc1ccc2cc3[n+](cc2c1OC)CCc1cc2c(cc1-3)OCO2 | Encephalitozoon intestinalis | RK-13 | - | 10 µg/mL | inhibition | 56.4%
CCCSc1nsc(-c2ccccc2)c1C#N | Encephalomyocarditis virus | L929 | plaque count | - | EC50 | 5 µg/mL
CCN(CC)CCCC(C)Nc1ccnc2cc(Cl)ccc12 | Encephalitozoon cuniculi | MRC-5 fibroblasts | cytopathic effect | 5 µg/mL | inhibition | 0%
CCCN1[Se]c2ccccc2NC1=S | Encephalomyocarditis virus | - | - | - | MIC | 100 µg/mL
Cn1[se]c2c(ccc[n+]2C)c1=O | Encephalomyocarditis virus | - | - | - | MIC | 2 µg/mL
CO[C@@H]1[C@H](OC(=O)NC(=O)CCl)CC[C@]2(CO2)[C@H]1[C@@]1(C)O[C@@H]1CC=C(C)C | Encephalitozoon cuniculi | RK-13 | - | - | EC50 | 0.001 µg/mL
C(=Nc1ccccc1[Se][Se]c1ccccc1N=Cc1ccccc1)c1ccccc1 | Encephalomyocarditis virus | - | - | - | MIC | 8 µg/mL
O=c1c2cccnc2[se]n1N(c1ccccc1)c1ccccc1 | Encephalomyocarditis virus | - | - | - | MIC | 500 µg/mL
COC(=O)Nc1nc2ccc(C(=O)c3ccc(F)cc3)cc2[nH]1 | Encephalitozoon intestinalis | E6 HOST CELLS | - | - | EC50 | 0.01 µg/mL
CCCNC(=O)Oc1ccccc1[Se][Se]c1ccccc1OC(=O)NCCC | Encephalomyocarditis virus | - | - | - | MIC | 4 µg/mL
CO[C@@H]1[C@H](OC(=O)NC(=O)CCl)CC[C@]2(CO2)[C@H]1[C@@]1(C)O[C@@H]1CC=C(C)C | Encephalitozoon intestinalis | - | - | - | EC50 | ≥0.05 µM
CCCSc1nsc(-c2ccccc2)c1C(=O)O | Encephalomyocarditis virus | L929 | plaque count | - | EC50 | >500 µg/mL
CCOC(=O)Nc1cc2c(c(N)n1)N=C1c3ccccc3CCC1O2.Cl.Cl | Encephalitozoon intestinalis | RK-13 | - | 0.1 µg/mL | inhibition | 28.3%
CSc1nsc(-c2ccccc2)c1C(=O)O | Encephalomyocarditis virus | L929 | plaque count | - | EC50 | >500 µg/mL
Oc1ccccc1[Se][Se]c1ccccc1O | Encephalomyocarditis virus | - | - | - | MIC | 4 µg/mL

For reference, 4 entries again:

compound,agent,cell line,read by,dose,measure,value
CCOC(=O)Nc1cc2c(c(N)n1)N=C1c3ccccc3CCC1O2.Cl.Cl,Encephalitozoon intestinalis,RK-13,-,0.1 µg/mL,inhibition,28.3%
COc1cc2c(c(OC)c1OC)-c1ccc(OC)c(=O)cc1[C@@H](NC(C)=O)CC2,Encephalitozoon intestinalis,RK-13,-,0.01 µg/mL,inhibition,43.1%
C(=Nc1ccccc1[Se][Se]c1ccccc1N=Cc1ccccc1)c1ccccc1,Encephalomyocarditis virus,-,-,-,MIC,8 µg/mL
Cc1ncc([N+](=O)[O-])n1CCO,Encephalitozoon cuniculi,MRC-5 fibroblasts,cytopathic effect,50 µg/mL,inhibition,89%